Anti-infective test results gathered from many reports (values: NIAID ChemDB through PubChem).

All rows: tests in culture; organism: Aspergillus niger; measure: zone

Conditions beyond the fields shown may differ between rows.

CC1(C)CCC2=C(C1=O)C(c1ccc(C3C4=C(CCC(C)(C)C4=O)OC4=C3C(=O)C(C)(C)CC4)cc1)C1=C(CCC(C)(C)C1=O)O2 ; strain: ATCC 10949 ; tested at: 140 µg/disc ; read by: agar diffusion ; value: 7 mm
O=C(NN=CC1C(c2ccccc2)=Nc2ccccc21)N1c2ccccc2C=Cc2ccccc21 ; strain: MTCC 281 ; tested at: 750 µg/mL ; read by: agar diffusion ; value: 4 mm
CC(=O)Nc1nc(C)c(-c2n[nH]c(=S)n2N2C(=O)CSC2c2ccc(Br)cc2)s1 ; tested at: 100 µg/mL ; read by: agar diffusion ; value: 22 mm
COc1ccc(C=NNC(=O)c2snnc2C(F)(F)F)cc1 ; strain: MTCC 1344 ; tested at: 100 µg/mL ; read by: agar diffusion / agar ; value: 0 mm
CSC1=NC(c2ccc(Cl)cc2)C(C#N)=C(N)N1 ; strain: MTCC 282 ; tested at: 100 µg/mL ; read by: agar diffusion ; value: 17 mm
Cc1ccc(/C=C/C(=NCCCn2ccnc2)c2ccccc2O)cc1.[Cl][Cu] ; tested at: 100 µg/mL ; read by: agar diffusion ; value: 16 mm
CC(=Nc1cccc2cccc(N=C(C)c3c(O)ccc4c(C)cc(=O)oc34)c12)c1c(O)ccc2c(C)cc(=O)oc12 ; strain: MTCC 1881 ; tested at: 100 µg/mL ; value: 7 mm
CC(=O)Nc1nc(C)c(-c2n[nH]c(=S)n2N2C(=O)CSC2c2ccc(C)cc2)s1 ; tested at: 100 µg/mL ; read by: agar diffusion ; value: 20 mm
Cc1nc2ccccc2n(CC(=O)NN2C(=O)CSC2c2ccc(N(C)C)cc2)c1=O ; tested at: 50 µg/mL ; value: 10 mm
COc1ccc(-c2nc(S(C)(=O)=O)nc(N)c2C#N)cc1 ; strain: MTCC 282 ; tested at: 25 µg/mL ; read by: agar diffusion ; value: 18 mm
O=c1c2ccccc2c(-c2ccccc2)nn1-c1nc2[nH]c3ccc(Cl)cc3c2c2ccccc12 ; strain: MTCC 281 ; tested at: 6.25 µg/mL ; read by: agar diffusion / visual reading ; value: 9 mm
CC(=O)Nc1nc(C)c(-c2n[nH]c(=S)n2N2C(=O)CSC2c2ccc(O)cc2)s1 ; tested at: 100 µg/mL ; read by: agar diffusion ; value: 18 mm
CC(=NNC(=O)c1snnc1C(F)(F)F)c1ccc([N+](=O)[O-])cc1 ; strain: MTCC 1344 ; tested at: 100 µg/mL ; read by: agar diffusion / agar ; value: 0 mm
CC1(C)CC(=O)C2=C(C1)OC1=C(C(=O)CC(C)(C)C1)C2c1cccc(C2C3=C(CC(C)(C)CC3=O)OC3=C2C(=O)CC(C)(C)C3)c1 ; strain: ATCC 10949 ; tested at: 40 µg/disc ; read by: agar diffusion ; value: 0 mm
CSC1=NC(/C=C/c2ccccc2)C(C#N)=C(N)N1 ; strain: MTCC 282 ; tested at: 50 µg/mL ; read by: agar diffusion ; value: 15 mm
C=C1CC[C@H](OC(C)=O)[C@@]2(C)[C@@H](OC(=O)CC(C)C)C[C@@H](OC(C)=O)[C@]3(CO3)[C@@H]2[C@H](OC(C)=O)[C@]2(O)[C@@H](C)C(=O)O[C@H]2[C@H]1Cl ; tested at: 200 µg/mL ; read by: agar diffusion / agar ; value: 6 mm
Oc1ccccc1C(/C=C/c1ccccc1)=NCCCn1ccnc1.[Cl][Cu] ; tested at: 100 µg/mL ; read by: agar diffusion ; value: 16 mm
CS(=O)(=O)c1nc(N)c(C#N)c(-c2ccccc2)n1 ; strain: MTCC 282 ; tested at: 25 µg/mL ; read by: agar diffusion ; value: 18 mm
O=C(O)c1ccccc1C(=O)NNc1nc2[nH]c3ccc(Cl)cc3c2c2ccccc12 ; strain: MTCC 281 ; tested at: 3.125 µg/mL ; read by: agar diffusion / visual reading ; value: 13 mm
Cc1nc2ccccc2n(CC(=O)NN2C(=O)CSC2c2ccc([N+](=O)[O-])cc2)c1=O ; tested at: 50 µg/mL ; value: 13 mm
Cc1ccc2c(c1)C(C=NNC(=O)N1c3ccccc3C=Cc3ccccc31)C(c1ccccc1)=N2 ; strain: MTCC 281 ; tested at: 750 µg/mL ; read by: agar diffusion ; value: 12 mm
COc1ccc(C2CC(=O)C3=C(C2)OC2=C(C(=O)CC(c4ccc(OC)c(OC)c4)C2)C3c2ccc(C3C4=C(CC(c5ccc(OC)c(OC)c5)CC4=O)OC4=C3C(=O)CC(c3ccc(OC)c(OC)c3)C4)cc2)cc1OC ; strain: ATCC 10949 ; tested at: 140 µg/disc ; read by: agar diffusion ; value: 0 mm
CN(C)C=O ; tested at: 100 µg/mL ; value: 6 mm
O=C(NN1C(=O)CSC1C1C(c2ccccc2)=Nc2ccccc21)N1c2ccccc2C=Cc2ccccc21 ; strain: MTCC 281 ; tested at: 750 µg/mL ; read by: agar diffusion ; value: 4 mm
COc1ccc2[nH]c3nc(NNC(=O)c4ccccc4C(=O)O)c4ccccc4c3c2c1 ; strain: MTCC 281 ; tested at: 6.25 µg/mL ; read by: agar diffusion / visual reading ; value: 6 mm
CC(=O)OCC1=C/[C@@H]2OC(=O)[C@H](C)[C@@]2(O)[C@@H](OC(C)=O)[C@H]2[C@@]3(CO3)[C@H](OC(=O)CC(C)C)C[C@H](OC(=O)CC(C)C)[C@]2(C)[C@@H](OC(C)=O)/C=C\1 ; tested at: 200 µg/mL ; read by: agar diffusion / agar ; value: 8 mm
CSC1=NC(c2cccc3cc4ccccc4cc23)C(C#N)=C(N)N1 ; strain: MTCC 282 ; tested at: 50 µg/mL ; read by: agar diffusion ; value: 15 mm
Cc1ccc2nc3n4c(c5ccccc5c-3c2c1)NN=C(c1ccc(Cl)cc1)C4 ; strain: MTCC 281 ; tested at: 3.125 µg/mL ; read by: agar diffusion / visual reading ; value: 10 mm
CC(C)n1c(/C=C/C=Nn2cn[nH]c2=S)c(-c2ccc(F)cc2)c2ccccc21 ; tested at: 500 µg/mL ; value: 13 mm
Cc1ccc(/C=C/C(=NCCCn2ccnc2)c2ccccc2O)cc1.[Cl][Ni] ; tested at: 100 µg/mL ; read by: agar diffusion ; value: 14 mm
CC(=O)Nc1nc(C)c(-c2n[nH]c(=S)n2N2C(=O)CSC2c2ccccc2[N+](=O)[O-])s1 ; tested at: 100 µg/mL ; read by: agar diffusion ; value: 9 mm
CC1(C)CCC2=C(C1=O)C(c1cccc(C3C4=C(CCC(C)(C)C4=O)OC4=C3C(=O)C(C)(C)CC4)c1)C1=C(CCC(C)(C)C1=O)O2 ; strain: ATCC 10949 ; tested at: 140 µg/disc ; read by: agar diffusion ; value: 7 mm
Cc1nc2ccccc2n(CC(=O)NN2C(=O)CSC2c2ccccc2O)c1=O ; tested at: 50 µg/mL ; value: 8 mm
CSC1=NC(c2ccccc2[N+](=O)[O-])C(C#N)=C(N)N1 ; strain: MTCC 282 ; tested at: 100 µg/mL ; read by: agar diffusion ; value: 15 mm
COc1ccc(C2SCC(=O)N2NC(=O)Cn2c(=O)c(C)nc3ccccc32)cc1OC ; tested at: 100 µg/mL ; value: 17 mm
COC1=CC(=O)C[C@@H](C)[C@]12Oc1c(Cl)c(OC)cc(OC)c1C2=O ; tested at: 100 µg/mL ; read by: agar diffusion ; value: 28 mm
CC(=NNC(=O)c1snnc1C(F)(F)F)c1ccccn1 ; strain: MTCC 1344 ; tested at: 100 µg/mL ; read by: agar diffusion / agar ; value: 0 mm
CS(=O)(=O)c1nc(N)c(C#N)c(-c2ccccc2O)n1 ; strain: MTCC 282 ; tested at: 100 µg/mL ; read by: agar diffusion ; value: 20 mm
O=C(NN=Cc1ccco1)c1snnc1C(F)(F)F ; strain: MTCC 1344 ; tested at: 100 µg/mL ; read by: agar diffusion / agar ; value: 0 mm
Cc1ccc(/C=C/C(=NCCCn2ccnc2)c2ccccc2O)cc1 ; tested at: 100 µg/mL ; read by: agar diffusion ; value: 14 mm
CSC1=NC(c2ccccc2)C(C#N)=C(N)N1 ; strain: MTCC 282 ; tested at: 100 µg/mL ; read by: agar diffusion ; value: 18 mm
O=C1CCCC2=C1C(c1cccc(C3C4=C(CCCC4=O)OC4=C3C(=O)CCC4)c1)C1=C(CCCC1=O)O2 ; strain: ATCC 10949 ; tested at: 140 µg/disc ; read by: agar diffusion ; value: 7 mm
Cc1nc2ccccc2n(CC(=O)NN2C(=O)CSC2c2ccc(C(F)(F)F)cc2)c1=O ; tested at: 50 µg/mL ; value: 13 mm
COc1ccc2[nH]c3c(c2c1)c1ccccc1c1nnc(C(C)(C)C)n13 ; strain: MTCC 281 ; tested at: 3.125 µg/mL ; read by: agar diffusion / visual reading ; value: 10 mm

The last 4 rows once more:

smiles | strain | tested at | read by | value
CSC1=NC(c2ccccc2)C(C#N)=C(N)N1 | MTCC 282 | 100 µg/mL | agar diffusion | 18 mm
O=C1CCCC2=C1C(c1cccc(C3C4=C(CCCC4=O)OC4=C3C(=O)CCC4)c1)C1=C(CCCC1=O)O2 | ATCC 10949 | 140 µg/disc | agar diffusion | 7 mm
Cc1nc2ccccc2n(CC(=O)NN2C(=O)CSC2c2ccc(C(F)(F)F)cc2)c1=O |  | 50 µg/mL |  | 13 mm
COc1ccc2[nH]c3c(c2c1)c1ccccc1c1nnc(C(C)(C)C)n13 | MTCC 281 | 3.125 µg/mL | agar diffusion / visual reading | 10 mm

Blank or dashed fields: not listed here. Zone: diameter of growth inhibition.